Protein sequences, listed by entry. Tags and fused reporters are not part of them. Residues count along the entry.
UniProt Q7ZJM1, 1-288: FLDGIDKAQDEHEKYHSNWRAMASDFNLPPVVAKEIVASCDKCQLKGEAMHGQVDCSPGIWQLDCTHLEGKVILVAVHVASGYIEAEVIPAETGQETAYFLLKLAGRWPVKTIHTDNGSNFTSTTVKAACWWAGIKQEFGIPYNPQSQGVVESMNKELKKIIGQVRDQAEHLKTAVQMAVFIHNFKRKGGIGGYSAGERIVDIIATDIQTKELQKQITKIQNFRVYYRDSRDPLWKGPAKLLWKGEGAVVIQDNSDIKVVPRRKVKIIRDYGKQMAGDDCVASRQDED

Each molecule was assayed against Human immunodeficiency virus type 1 integrase (Human immunodeficiency virus 1, UniProt Q7ZJM1) (assay: Inhibition of Human immunodeficiency virus 1 integrase 3'-processing activity expressed in Escherichia coli using 21-mer DNA and Mg2+ after 2 hrs by polyacrylamide gel electrophoresis).
`Cc1cn([C@H]2C[C@H](OP(C)(=O)OC[C@H]3O[C@@H](n4cc(C)c(=O)[nH]c4=O)C[C@@H]3OP(=O)(O)OC[C@H]3O[C@@H](n4cc(C)c(=O)[nH]c4=O)C[C@@H]3OP(=O)(O)OC[C@H]3O[C@@H](n4cnc5c(=O)[nH]c(N)nc54)C[C@@H]3OP(=O)(O)OC[C@H]3O[C@@H](n4cc(C)c(=O)[nH]c4=O)C[C@@H]3OP(C)(=O)OC[C@H]3O[C@@H](n4cnc5c(=O)[nH]c(N)nc54)C[C@@H]3OP(=O)(O)OC[C@H]3O[C@@H](n4cc(C)c(=O)[nH]c4=O)C[C@@H]3OP(=O)(O)OCCCCCCNC(=S)Nc3ccc(-c4c5cc(Br)c(=O)c(Br)c-5oc5c(Br)c(O)c(Br)cc45)c(C(=O)O)c3)[C@@H](COP(=O)(O)O[C@H]3C[C@H](n4cc(C)c(=O)[nH]c4=O)O[C@@H]3COP(C)(=O)O[C@H]3C[C@H](n4cc(C)c(=O)[nH]c4=O)O[C@@H]3COP(=O)(O)O[C@H]3C[C@H](n4cnc5c(=O)[nH]c(N)nc54)O[C@@H]3COP(=O)(O)O[C@H]3C[C@H](n4cnc5c(=O)[nH]c(N)nc54)O[C@@H]3CO)O2)c(=O)[nH]c1=O` (stereo partly drawn) showed an IC50 of 100 nM. `Cc1cn([C@H]2C[C@H](OP(C)(=O)OC[C@H]3O[C@@H](n4cnc5c(=O)[nH]c(N)nc54)C[C@@H]3OP(=O)(O)OC[C@H]3O[C@@H](n4cc(C)c(=O)[nH]c4=O)C[C@@H]3OP(C)(=O)OC[C@H]3O[C@@H](n4cnc5c(=O)[nH]c(N)nc54)C[C@@H]3OP(=O)(O)OC[C@H]3O[C@@H](n4cc(C)c(=O)[nH]c4=O)C[C@@H]3OP(C)(=O)OCCCCCCNC(=S)Nc3ccc(-c4c5cc(Br)c(=O)c(Br)c-5oc5c(Br)c(O)c(Br)cc45)c(C(=O)O)c3)[C@@H](COP(=O)(O)O[C@H]3C[C@H](n4cc(C)c(=O)[nH]c4=O)O[C@@H]3COP(=O)(O)O[C@H]3C[C@H](n4cc(C)c(=O)[nH]c4=O)O[C@@H]3COP(=O)(O)O[C@H]3C[C@H](n4cc(C)c(=O)[nH]c4=O)O[C@@H]3COP(=O)(O)O[C@H]3C[C@H](n4cc(C)c(=O)[nH]c4=O)O[C@@H]3COP(=O)(O)O[C@H]3C[C@H](n4cnc5c(=O)[nH]c(N)nc54)O[C@@H]3COP(=O)(O)O[C@H]3C[C@H](n4cnc5c(=O)[nH]c(N)nc54)O[C@@H]3CO)O2)c(=O)[nH]c1=O` (stereo partly drawn) showed an IC50 of 100 nM. In the case of `Cc1cn([C@H]2C[C@H](OP(C)(=O)OC[C@H]3O[C@@H](n4cc(C)c(=O)[nH]c4=O)C[C@@H]3OP(C)(=O)OC[C@H]3O[C@@H](n4cc(C)c(=O)[nH]c4=O)C[C@@H]3OP(=O)(O)OC[C@H]3O[C@@H](n4cc(C)c(=O)[nH]c4=O)C[C@@H]3OP(=O)(O)OC[C@H]3O[C@@H](n4cnc5c(=O)[nH]c(N)nc54)C[C@@H]3OP(=O)(O)OC[C@H]3O[C@@H](n4cc(C)c(=O)[nH]c4=O)C[C@@H]3OP(=O)(O)OC[C@H]3O[C@@H](n4cnc5c(=O)[nH]c(N)nc54)C[C@@H]3OP(=O)(O)OC[C@H]3O[C@@H](n4cc(C)c(=O)[nH]c4=O)C[C@@H]3OP(=O)(O)OCCCCCCNC(=S)Nc3ccc(-c4c5cc(Br)c(=O)c(Br)c-5oc5c(Br)c(O)c(Br)cc45)c(C(=O)O)c3)[C@@H](COP(C)(=O)O[C@H]3C[C@H](n4cc(C)c(=O)[nH]c4=O)O[C@@H]3COP(=O)(O)O[C@H]3C[C@H](n4cnc5c(=O)[nH]c(N)nc54)O[C@@H]3COP(=O)(O)O[C@H]3C[C@H](n4cnc5c(=O)[nH]c(N)nc54)O[C@@H]3CO)O2)c(=O)[nH]c1=O` (stereo partly drawn), the IC50 is reported as 110 nM.

From ChEMBL document CHEMBL2010748, “Structure-Activity Relationship Studies of HIV-1 Integrase Oligonucleotide Inhibitors” (ACS Med Chem Lett, 2011)
